± gives the uncertainty stated by the source.
How the values were obtained:
[1] = xn = mol fraction of the nth substance listed; settings: 101.3 kPa
[2] = 101.3 kPa

CCC[N+]1(C)CCCCC1.O=S(=O)(F)[N-]S(=O)(=O)F + CCC[N+]1(C)CCCCC1.O=S(=O)([N-]S(=O)(=O)C(F)(F)F)C(F)(F)F
viscosity ([1]; 293.15 K, x2 = 0.2): 70.3 ± 14 mPa·s
viscosity ([1]; 293.15 K, x2 = 0.4): 86.5 ± 17 mPa·s
viscosity ([1]; 298.15 K, x2 = 0.2): 57.8 ± 12 mPa·s
viscosity ([1]; 298.15 K, x2 = 0.4): 69.7 ± 14 mPa·s
viscosity ([1]; 298.15 K, x2 = 0.6): 79.9 ± 16 mPa·s
viscosity ([1]; 303.15 K, x2 = 0.6): 64.5 ± 13 mPa·s
viscosity ([1]; 303.15 K, x2 = 0.8): 81.5 ± 16 mPa·s
viscosity ([1]; 308.15 K, x2 = 0.6): 52.8 ± 11 mPa·s
viscosity ([1]; 308.15 K, x2 = 0.8): 65.2 ± 13 mPa·s

CCC[N+]1(C)CCCCC1.O=S(=O)(F)[N-]S(=O)(=O)F + CCCC[N+]1(C)CCCC1.O=S(=O)(F)[N-]S(=O)(=O)F
viscosity ([1]; 293.15 K, x1 = 0.2): 93.2 ± 19 mPa·s
viscosity ([1]; 293.15 K, x1 = 0.4): 72.4 ± 15 mPa·s
viscosity ([1]; 293.15 K, x1 = 0.6): 68.1 ± 14 mPa·s
viscosity ([1]; 293.15 K, x1 = 0.8): 65.9 ± 13 mPa·s
viscosity ([1]; 298.15 K, x1 = 0.2): 75.7 ± 15 mPa·s
viscosity ([1]; 298.15 K, x1 = 0.4): 59.6 ± 12 mPa·s
viscosity ([1]; 298.15 K, x1 = 0.6): 56.4 ± 11 mPa·s
viscosity ([1]; 298.15 K, x1 = 0.8): 54.8 ± 11 mPa·s
viscosity ([1]; 303.15 K, x1 = 0.2): 62.3 ± 12 mPa·s
viscosity ([1]; 303.15 K, x1 = 0.4): 49.7 ± 10 mPa·s

CCC[N+]1(C)CCCCC1.O=S(=O)(F)[N-]S(=O)(=O)F
viscosity ([2]; 293.15 K): 61.4 ± 12 mPa·s
viscosity ([2]; 298.15 K): 51.2 ± 10 mPa·s
viscosity ([2]; 303.15 K): 43.3 ± 8.7 mPa·s
viscosity ([2]; 308.15 K): 36.9 ± 7.4 mPa·s
viscosity ([2]; 313.15 K): 31.8 ± 6.4 mPa·s
viscosity ([2]; 318.15 K): 27.6 ± 5.5 mPa·s
viscosity ([2]; 323.15 K): 24.2 ± 4.8 mPa·s

— the CheMixHub viscosity set
